Values from PubChem BioAssay AID1259414 (Drosophila RNAi Screening Center, 2018).
Screen: 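Host factors increasing or decreasing Wolbachia levels in cultured fly cells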 (primary screen). Cell system: Drosophila JW18 cells infected with Wolbachia. Reagents: long dsRNA against Drosophila genes, 0.25 µg dsRNA per well of a 384-well plate. Timing: 5 days. Treatment: cells persistently infected with Wolbachia before knock-down; no added drug. Detection: 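Imaged fluorescence in situ signal for Wolbachia 23S rRNA per DAPI-counted host cell, given as a robust z-score within each plate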. Direction: Wolbachia per cell robust z: higher = more Wolbachia per host cell than the plate typical. Hit rule: 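Hit when robust z is 1.5 or more, or -1.5 or less, in at least two of three replicates; excludes dsRNAs with several or no targets, genes not expressed in JW18 and well A1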.
The screen tested about 24,000 reagents; below is an unselected part of those with a known target gene and a result. In the full data, about 1,210 (5%) were called active. 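Inactive calls also include excluded dsRNAs with several or no targets, genes unexpressed in JW18, and well A1, regardless of score.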 Entries without a mark were called inactive. The numbers tell different reagents against one gene apart. Names joined by + are all predicted targets of the reagent.

Gene | reagent no. | Wolbachia per cell robust z, rep 1 | Wolbachia per cell robust z, rep 2 | Wolbachia per cell robust z, rep 3
BEAF-32 + asRNA:CR42254 | 1 | -0.287 | -1.24 | -1.9
ubl (GeneID 35592) | 1 | -1.56 | -1.19 | -0.345
CG13135 (GeneID 34345) | 1 | -0.328 | -0.643 | 0.258
CG13135 (GeneID 34345) | 2 | -0.664 | -2.38 | -2.12
Tollo (GeneID 44497) | 1 | -0.11 | -0.0149 | -2.48
swi2 (GeneID 37010) | 1 | -0.341 | 0.485 | 0.138
CG17568 (GeneID 35198) | 1 | -0.404 | -0.153 | 0.691
CG34225 (GeneID 5740807) | 1 | -0.373 | 0.35 | -1.32
Bub3 (GeneID 43490) | 1 | 0.516 | 0.57 | -6.31
Bub3 (GeneID 43490) | 2 | 0.0894 | -8.84 | 0.591
dtr (GeneID 318856) | 1 | -0.569 | -0.137 | -0.74
CG4960 (GeneID 43115) | 1 | -0.676 | 0.947 | -0.0917
CG4960 (GeneID 43115) | 2 | -1.74 | -1 | 0.113
RpS19b (GeneID 42830) | 1 | -5.5 | 0.779 | 0.894
Ubc87F (GeneID 41682) | 1 | 0.452 | -0.0726 | 0.579
Ubc87F (GeneID 41682) | 2 | 0.161 | -0.33 | -0.541
CG13920 (GeneID 38203) | 1 | -0.79 | 0.536 | -3.1
CG14968 (GeneID 38406) | 1 | 0.171 | 0.276 | 0.331
CG14968 (GeneID 38406) | 2 | 0.386 | 0.0127 | -1.2
Nplp1 (GeneID 38003) | 1 | 0.751 | -0.138 | 0.383
CG10311 (GeneID 41984) | 1 | 0.207 | -0.792 | -3.67
psidin (GeneID 42389) | 1 | 0.618 | 0.971 | 1.04
CG17780 (GeneID 42914) | 1 | -2.95 | 0.0125 | 0.692

8 of these entries, reformatted:
{"Gene": "dtr (GeneID 318856)", "reagent no.": 1, "Wolbachia per cell robust z, rep 1": -0.569, "Wolbachia per cell robust z, rep 2": -0.137, "Wolbachia per cell robust z, rep 3": -0.74}
{"Gene": "CG4960 (GeneID 43115)", "reagent no.": 1, "Wolbachia per cell robust z, rep 1": -0.676, "Wolbachia per cell robust z, rep 2": 0.947, "Wolbachia per cell robust z, rep 3": -0.0917}
{"Gene": "CG4960 (GeneID 43115)", "reagent no.": 2, "Wolbachia per cell robust z, rep 1": -1.74, "Wolbachia per cell robust z, rep 2": -1, "Wolbachia per cell robust z, rep 3": 0.113}
{"Gene": "RpS19b (GeneID 42830)", "reagent no.": 1, "Wolbachia per cell robust z, rep 1": -5.5, "Wolbachia per cell robust z, rep 2": 0.779, "Wolbachia per cell robust z, rep 3": 0.894}
{"Gene": "Ubc87F (GeneID 41682)", "reagent no.": 1, "Wolbachia per cell robust z, rep 1": 0.452, "Wolbachia per cell robust z, rep 2": -0.0726, "Wolbachia per cell robust z, rep 3": 0.579}
{"Gene": "Ubc87F (GeneID 41682)", "reagent no.": 2, "Wolbachia per cell robust z, rep 1": 0.161, "Wolbachia per cell robust z, rep 2": -0.33, "Wolbachia per cell robust z, rep 3": -0.541}
{"Gene": "CG13920 (GeneID 38203)", "reagent no.": 1, "Wolbachia per cell robust z, rep 1": -0.79, "Wolbachia per cell robust z, rep 2": 0.536, "Wolbachia per cell robust z, rep 3": -3.1}
{"Gene": "CG14968 (GeneID 38406)", "reagent no.": 1, "Wolbachia per cell robust z, rep 1": 0.171, "Wolbachia per cell robust z, rep 2": 0.276, "Wolbachia per cell robust z, rep 3": 0.331}

More results follow:
Gene | reagent no. | Wolbachia per cell robust z, rep 1 | Wolbachia per cell robust z, rep 2 | Wolbachia per cell robust z, rep 3
cutlet (GeneID 44637) | 1 | 1.12 | 0.542 | 0.409
cutlet (GeneID 44637) | 2 | 1.05 | 0.476 | 1.19
CG14562 (GeneID 40439) | 1 | -1.11 | 0.7 | -0.269
CG32447 (GeneID 40412) | 1 | -2.39 | -1.66 | 0.441
CG32447 (GeneID 40412) | 2 | 0.57 | -0.734 | 0.404
spz4 (GeneID 34572) | 1 | 0.479 | -0.615 | 0.981
spz4 (GeneID 34572) | 2 | -1.65 (active) | -0.571 | -1.73
CG33124 (GeneID 318891) | 1 | 0.292 | -0.0851 | 0.152
CG15258 (GeneID 34904) | 1 | -0.492 | -0.539 | -0.395
Tdh (GeneID 40268) | 1 | 1.17 | -0.334 | 0.886
Jon66Ci (GeneID 38952) | 1 | 0.368 | 0.575 | 0.361
Jon66Ci (GeneID 38952) | 2 | -0.333 | 0.5 | 1.95
CG42354 + CG42353 | 1 | -0.853 | 0.454 | 4.06
Mhc (GeneID 35007) | 1 | 0.491 | -0.0586 | -0.488
Mhc (GeneID 35007) | 2 | -0.586 | 0.165 | 0.306
dar1 (GeneID 38436) | 1 | 0.491 | 0.537 | 1.24
Ankle2 (GeneID 32732) | 1 | 1.37 | -0.0274 | -8.69
Ankle2 (GeneID 32732) | 2 | 0.482 | -0.602 | -0.247
CG30098 (GeneID 246456) | 1 | -0.241 | 0.392 | 1.35
CG30098 (GeneID 246456) | 2 | -0.758 | -0.54 | -0.0925
Rae1 (GeneID 37467) | 1 | 0.214 | 0.979 | 0.296
stx (GeneID 32005) | 1 | -1.27 (active) | -5.62 | -5.82
stx (GeneID 32005) | 2 | 0.122 | -5.44 | 0.904
holn1 (GeneID 34432) | 1 | -0.311 | -0.41 | 0.106
holn1 (GeneID 34432) | 2 | 0.673 | 1.48 | 1.16
inaF-D + inaF-B + inaF-A + 1 more | 1 | 0.498 | -1.28 | -0.52
Obp46a (GeneID 36088) | 1 | -0.25 | -4.01 | 0.222
CG8192 (GeneID 36723) | 1 | -0.0901 | -0.54 | -1.41
Scsalpha1 (GeneID 38447) | 1 | 0.873 | 0.616 | 0.961
Scsalpha1 (GeneID 38447) | 2 | -5.28 (active) | 1.17 | -8.35
CG30008 (GeneID 246388) | 1 | 0.544 | -0.868 | 0.711
CG30008 (GeneID 246388) | 2 | 0.0556 | 0.199 | 0.245
NimB1 (GeneID 34813) | 1 | -0.338 | 0.559 | 0.586
CG32206 (GeneID 40105) | 1 | 0.384 | -0.812 | -0.406
CG32206 (GeneID 40105) | 2 | 0.503 | 1.2 | -3.46
CG32206 (GeneID 40105) | 3 | -1.33 | -0.627 | -1
CG32206 (GeneID 40105) | 4 | -2.19 | -0.678 | -0.941
Trf4 (GeneID 33452) | 1 | -0.671 | -0.429 | -0.457
btl (GeneID 39564) | 1 | -1.41 | -0.25 | -0.46
btl (GeneID 39564) | 2 | -0.822 | -0.0836 | -0.137
CG33772 (GeneID 3772205) | 1 | 0.489 | 1.26 | 2.11
CG34433 (GeneID 5740702) | 1 | -0.238 | 0.984 | 0.04
Sfp53D (GeneID 8673983) | 1 | -0.571 | 0.365 | -2.05
HP1D3csd (GeneID 32906) | 1 | -0.1 (active) | -3.05 | -3.24
CG6972 + CCAP | 1 | -0.0297 | -0.457 | 1.25
